The values that follow come from publication PMC11067372, “Evaluation of the antiplasmodial efficacy of synthetic 2,5-diphenyloxazole analogs of compounds naturally derived from Oxytropis lanata” (International Journal for Parasitology: Drugs and Drug …, 2024).

The structures appear in SMILES notation.

The subject of this series is P. falciparum 3D7. The series can be described thus: In vitro inhibition of P. falciparum 3D7 (SYBR Green I-based fluorescence assay). In kind it is cell-based, Plasmodium falciparum. The note with it: dose-response curve.

Regarding `COc1cccc(-c2ncc(-c3ccccc3O)o2)c1OC` [Compound 31, 2-(2′,3′-dimethoxyphenyl)-5-(2″-hydroxyphenyl)oxazole], the hill slope is on record as 2.10.

Regarding `COc1cccc(-c2ncc(-c3ccccc3OCc3ccccc3)o2)c1OC` [Compound 32, 2-(2′,3′-dimethoxyphenyl)-5-(2″-benzyloxyphenyl)oxazole], the hill slope is 2.02.
